Target: Replicase polyprotein 1a (Severe acute respiratory syndrome-related coronavirus, UniProt P0C6U8)
Assay: Inhibition of SARS coronavirus Chymotrypsin-like protease using H-Thr-Ser-Ala-Val-Leu-Gln-Ser-Gly-Phe-Arg-Lys-NH2 as substrate by fluorescence assay

Compound | IC50 [µM] | Ki [µM]
CC(C)C[C@H](NC(=O)OCc1ccccc1)C(=O)N[C@@H](C[C@@H]1CCNC1=O)C(=O)c1nc2ccccc2s1 | 21 | 0.46
CC(C)C[C@H](NC(=O)COc1ccccc1)C(=O)N[C@@H](C[C@@H]1CCNC1=O)C(=O)c1nc2ccccc2s1 | 24 | 0.56
COc1ccccc1NCC(=O)N[C@@H](CC(C)C)C(=O)N[C@@H](C[C@@H]1CCNC1=O)C(=O)c1nc2ccccc2s1 | 14 | 0.33

From ChEMBL document CHEMBL2401675, “Design, synthesis, and biological evaluation of novel dipeptide-type SARS-CoV 3CL protease inhibitors: structure-activity relationship study” (Eur J Med Chem, 2013)
